We go through 1 substance from paper PMC7990223.

Experiment [1] deals with mACE2 (H353K) (mouse) (UniProt Q8R0I0).
Experiment [2] deals with kACE2 (T31K/F83Y) (koala).
In experiment [3] the target is mACE2 (F83Y/H353K) (mouse) (UniProt Q8R0I0).
Experiment [4] addresses kACE2 (T31K) (koala).

As to “S1 domain of the SARS-CoV-2 spike C-terminally fused with Fc (from UniProt P0DTC2 14-685)”, the percent of ACE2-expressing (zsGreen1+) cells positive for S1-Fc in experiment [1] amounted to 50.3%; in experiment [2], 92.1%; in experiment [3], 83.9%; in experiment [4], 73.8%.
